# Molecular target: MACV GP1 (Machupo virus GP1 glycoprotein, residues 87 to 257) (Machupo virus (MACV)., UniProt Q6PXS3)
# Experiment: crystal structure
binder,measurement,value
"Fab fragment of NAb MAC1 (Fab, V domains shown, also called Fab MAC1; MAC1 Fab; source: HEK293T, heavy and light chains coexpressed, purified) VH: QVQLQQSGAELVKPGASVKISCKASGYAFGSHWMNWVKQRPGKGLEWIGQIYPGDGDTNYNGKFKGKATLTADKSSSTAYMQFSSLTSEDSAVYFCARDDYGTRYYFDYWGQGTTLTVSS VL: DIQMTQTTSSLSASLGDRVSISCRASQDINNYLNWYQQKPDGTVKLLIHYTSRLRSGVPSRFSGSGFGTDYSLTITNLEQEDIATYFCQQGKTLPLTFGAGTKLEIK",binding result,binds

# — PMC9040744 (mBio, 2022)
